Experiments:
[1] = system: T. b. brucei strain resistant to pentamidine (B48); format: cell-based; conditions: EC50 B48 / EC50 WT
[2] = system: T. brucei cell line from which all aquaporins were knocked out (AQP1-3 KO); format: cell-based, T. b. brucei; conditions: EC50 AQP1-3 KO / EC50 WT

Q: With CC(=O)O.Cc1cc(O)cc(O)c1C(=O)NCCCCCCOc1ccc(C(=N)N)cc1 [1b] as the compound, how does the “RF (resistance factor relative to WT), B48” value [1] read?
A: 1.8

Q: What about the “RF (resistance factor relative to WT), AQP1-3 KO” value [2] of the same compound?
A: 1.1

Q: CC(=O)O.Cc1cc(O)cc(O)c1C(=O)NCCCCCCCCCCCCOc1ccc(C(=N)N)cc1 [1c] was tested. Which “RF (resistance factor relative to WT), B48” value [1] did it give?
A: 1.1

Q: For CC(=O)O.Cc1cc(O)cc(O)c1C(=O)NCCCCCCCCCCCCCCOc1ccc(C(=N)N)cc1 [1d], which “RF (resistance factor relative to WT), B48” value [1] is on record?
A: 1.6

Q: CC(=O)O.Cc1cc(O)cc(O)c1C(=O)NCCCCCCCCCCCCOc1ccc(C2=NCCN2)cc1 [2c] was tested. Which “RF (resistance factor relative to WT), AQP1-3 KO” value [2] did it give?
A: 1.7

Q: How did the “RF (resistance factor relative to WT), AQP1-3 KO” value [2] turn out when CC(=O)O.Cc1cc(O)cc(O)c1C(=O)NCCCCCCCCCCCCOc1ccc(N=C2NCCN2)cc1 [3c] was run?
A: 1.4

Q: For Cc1cc(O)cc(O)c1C(=O)NCCCOc1ccc(C#N)cc1 [7a], which “RF (resistance factor relative to WT), B48” value [1] is on record?
A: 1.4

Q: Which results are given for Cc1cc(O)cc(O)c1C(=O)NCCCCCCOc1ccc(C#N)cc1 [7b]?
A: RF (resistance factor relative to WT), B48 [1]: 0.9; RF (resistance factor relative to WT), AQP1-3 KO [2]: 1.0

Q: Cc1cc(O)cc(O)c1C(=O)NCCCCCCCCCCCCOc1ccc(C#N)cc1 [7c] was tested. Which “RF (resistance factor relative to WT), B48” value [1] did it give?
A: 1.0

Q: How did the “RF (resistance factor relative to WT), B48” value [1] turn out when Cc1cc(O)cc(O)c1C(=O)NCCCCCCCCCCCCCCOc1ccc(C#N)cc1 [7d] was run?
A: 1.1

Q: Which results are given for Cc1cc(O)cc(O)c1C(=O)NCCCCCCOc1ccc(C(=N)NO)cc1 [8b]?
A: RF (resistance factor relative to WT), B48 [1]: 1.9; RF (resistance factor relative to WT), AQP1-3 KO [2]: 1.1

Q: With Cc1cc(O)cc(O)c1C(=O)NCCCCCCCCCCCCOc1ccc(C(=N)NO)cc1 [8c] as the compound, how does the “RF (resistance factor relative to WT), B48” value [1] read?
A: 1.1

Q: For Cc1cc(O)cc(O)c1C(=O)NCCCCCCCCCCCCCCOc1ccc(C(=N)NO)cc1 [8d], which “RF (resistance factor relative to WT), B48” value [1] is on record?
A: 0.9

Q: How did the “RF (resistance factor relative to WT), AQP1-3 KO” value [2] turn out when Cc1cc(O)cc(O)c1C(=O)NCCCCCCCCCCCCOc1ccc([N+](=O)[O-])cc1 [11c] was run?
A: 1.1

Q: Which “RF (resistance factor relative to WT), AQP1-3 KO” value [2] does the source give for Cc1cc(O)c(C(=O)CCCCCCCCCCCCCCCOc2ccc(C#N)cc2)c(O)c1 [compound 20] here?
A: 1.4

Q: For N=C(N)c1ccc(OCCCCCOc2ccc(C(=N)N)cc2)cc1 [pentamidine, reference compound], which “RF (resistance factor relative to WT), B48” value [1] is on record?
A: 49.5

Q: What about the “RF (resistance factor relative to WT), AQP1-3 KO” value [2] of the same compound?
A: 10.8
